Biological target: phage-fragment TJ7.15 (WNWFDIT) (HIV-1 (HxB2 or SF162 gp160 fragment library))
Assay: flow cytometry, yeast-displayed scFv with different TJ7.15 phage preparations

## Z13e1 scFv displayed on yeast
  % double positive cells: 40%
